Laboratory results: PubChem BioAssay AID624099 (ICCB-Longwood, 2012)
Screen: 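Knock-downs relieving repression by E2 of an HPV18 LCR luciferase reporter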 (primary screen). Cell system: human C33A cervical carcinoma cells (HPV-negative) stably expressing BPV1 E2 and an HPV18 LCR luciferase reporter. Reagents: siRNA pool against human genes, 40 nM. Duration: 72 h. Measurement: 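Per-well luciferase luminescence, z-scored on each plate against the plate mean and SD with control wells left out, then averaged across three replicate plates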. Scale: mean z-score and z-score: higher = stronger reporter signal, weaker E2 silencing. Hit rule: 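Mean z ≥ 2 together with z ≥ 2 in two or more of the three replicates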.
The deposit covers about 21,000 reagents; this is a random part of them. 497 of them (2.4%) were called active. 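Higher z means weaker E2 silencing; only reporter increases were scored, and knock-downs that hurt cell survival may mask genuine repressor factors.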 The numbers tell different reagents against one gene apart. Reagent sequences are not shown.

Gene	reagent no.	mean z-score	z-score, replicate A	z-score, replicate B	z-score, replicate C	call
TRPC4AP	1	-0.12	-0.17	-0.28	0.1	inactive
SCNN1B (sodium channel epithelial 1 subunit beta)	1	-0.3	-0.55	-0.07	-0.27	inactive
LINC01785 (long independently transcribed non-coding RNA 1785)	1	-0.94	-1.04	-1.11	-0.66	inactive
OR7E156P	1	0.26	0.2	0.65	-0.08	inactive
SOWAHB (sosondowah ankyrin repeat domain family member B)	1	-0.19	0.05	-0.49	-0.13	inactive
C6orf47 (chromosome 6 open reading frame 47)	1	-0.49	-0.34	-0.89	-0.24	inactive
POLR1D (RNA polymerase I and III subunit D)	1	0.77	0.83	0.72		inactive
POLR1D (RNA polymerase I and III subunit D)	2	1.43	0.97	1.87	1.47	inactive
ATP6V1E1 (ATPase H+ transporting V1 subunit E1)	1	-1	-1.38	-0.61	-1	inactive
KLK4 (kallikrein related peptidase 4)	1	-0.31	-0.45	-0.28	-0.21	inactive
PYCARD (PYD and CARD domain containing)	1	1.4	1.64	1.12	1.43	inactive
PTPRO (protein tyrosine phosphatase receptor type O)	1	-0.04	0.02	-0.07	-0.07	inactive
PPP1R14D (protein phosphatase 1 regulatory inhibitor subunit 14D)	1	-1.36	-0.98	-1.43	-1.66	inactive
RAD21 (RAD21 cohesin complex component)	1	-0.57	-0.64	-0.53	-0.54	inactive
LOC388137 (retired record)	1	-0.66	-0.75	-0.48	-0.74	inactive
ERBIN (erbb2 interacting protein)	1	0.14	-0.02	0.26	0.19	inactive
COQ8B (coenzyme Q8B)	1	1.37	1.22	1.84	1.05	inactive
ADGB (androglobin)	1	0.64	0.58	0.76	0.59	inactive
SLIRP (SRA stem-loop interacting RNA binding protein)	1	-1.42	-1.62	-1.11	-1.52	inactive
ZNF580 (zinc finger protein 580)	1	0.7	0.81	0.26	1.02	inactive
FLJ42220 (retired record)	1	-0.56	-0.38	-0.75	-0.56	inactive
HDAC6 (histone deacetylase 6)	1	0.53	0.81	0.43	0.35	inactive
LOC153959 (retired record)	1	0.18	-0.03	0.4	0.16	inactive
NUMB (NUMB endocytic adaptor protein)	1	-1.34	-1.21	-1.31	-1.49	inactive
ADPRHL1 (ADP-ribosylhydrolase like 1)	1	-2.03	-2.13	-1.93	-2.04	inactive
GMCL1 (germ cell-less 1, spermatogenesis associated)	1	-1.49	-1.67	-1.41	-1.38	inactive
CYYR1 (cysteine and tyrosine rich 1)	1	0.52	0.16	0.42	0.97	inactive
GINS4 (GINS complex subunit 4)	1	1.49	1.42	1.76	1.29	inactive
COL26A1 (collagen type XXVI alpha 1 chain)	1	-0.46	-0.59	-0.3	-0.48	inactive
C1QTNF5 (C1q and TNF related 5)	1	-0.02	-0.18	0.39	-0.25	inactive
SLC37A4	1	0.7	0.7	0.6	0.81	inactive
RFNG (RFNG O-fucosylpeptide 3-beta-N-acetylglucosaminyltransferase)	1	0.5	0.46	0.73	0.32	inactive
NUDT13 (nudix hydrolase 13)	1	0.13	-0.01	0.59	-0.2	inactive
H4C8 (H4 clustered histone 8)	1	0.47	0.25	0.51	0.64	inactive
CPSF2 (cleavage and polyadenylation specific factor 2)	1	0.87	0.65	1.34	0.63	inactive
NTM-AS1 (NTM antisense RNA 1)	1	0.6	0.72	0.33	0.77	inactive
LOC390734 (retired record)	1	-0.06	-0.19	-0.14	0.15	inactive
RBP3 (retinol binding protein 3)	1	-1.01	-0.93	-1.01	-1.1	inactive
LOC100288208	1	-0.39	-0.48	-0.35	-0.36	inactive
BABAM2 (BRISC and BRCA1 A complex member 2)	1	0.59	0.5	0.23	1.03	inactive
PITPNM2 (phosphatidylinositol transfer protein membrane associated 2)	1	-0.46	-0.81	-0.77	0.2	inactive
PPP6C (protein phosphatase 6 catalytic subunit)	1	-0.37	-0.65	-0.27	-0.18	inactive
ANXA2 (annexin A2)	1	-0.75	-0.36	-0.95	-0.94	inactive
EPHA2 (EPH receptor A2)	1	0.42	0.95	0.4	-0.08	inactive
TRIM42 (tripartite motif containing 42)	1	0.84	1.16	0.61	0.74	inactive
BHLHA15 (basic helix-loop-helix family member a15)	1	0.08	0.24	-0.08	0.08	inactive
TRIM66 (tripartite motif containing 66)	1	-0.84	-0.96	-0.99	-0.57	inactive
C11orf87 (chromosome 11 open reading frame 87)	1	0.76	0.58	0.93	0.77	inactive
LOC256483 (retired record)	1	1.05	1.25	0.99	0.92	inactive
KLHL22 (kelch like family member 22)	1	0.02	-0.03	-0.01	0.1	inactive
UGGT2 (UDP-glucose glycoprotein glucosyltransferase 2)	1	0.3	0.58	0.19	0.14	inactive
ARHGAP19 (Rho GTPase activating protein 19)	1	-0.19	-0.34	-0.39	0.16	inactive
AIFM1 (apoptosis inducing factor mitochondria associated 1)	1	-0.25	-0.51	-0.22	-0.03	inactive
OTOG (otogelin)	1	-0.14	-0.06	-0.1	-0.25	inactive
ZNF689 (zinc finger protein 689)	1	0.45	0.23	0.48	0.64	inactive
RPP14 (ribonuclease P/MRP subunit p14)	1	-0.61	-0.91	-0.62	-0.29	inactive
MGAT4C (MGAT4 family member C)	1	-0.57	-0.32	-0.46	-0.92	inactive

Entries listed so far whose gene name starts with O or o (2):
Gene	reagent no.	mean z-score	z-score, replicate A	z-score, replicate B	z-score, replicate C	call
OR7E156P	1	0.26	0.2	0.65	-0.08	inactive
OTOG (otogelin)	1	-0.14	-0.06	-0.1	-0.25	inactive
